From publication PMC2671405 come the findings set out here.

The chains behind the UniProt entries cited, without tags or fusion partners. Where a name states a change or a piece, a line headed by the entry shows the natural chain unless it says otherwise.
UniProt O25671: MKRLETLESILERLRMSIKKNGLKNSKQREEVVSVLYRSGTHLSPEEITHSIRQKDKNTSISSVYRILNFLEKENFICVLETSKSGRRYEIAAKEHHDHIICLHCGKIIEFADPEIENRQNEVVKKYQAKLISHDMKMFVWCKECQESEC

For some of these results: A negative result means that nothing was seen under these conditions. For some of these results: Construct, isoform or probe ends are uncertain for at least one entry. For some of these results: A weaker result is weaker than the reference pair of the same experiment.

For data set [1], the target named is Fur (ferric uptake regulator, rFur, apo form) (Helicobacter pylori 26695) (UniProt O25671). The data set is described as follows: competition EMSA. Particulars: 5x, 10x, 25x cold competitor against each labeled sodB promoter, 2x stock: 24% glycerol, 40 mM Tris pH 8.0, 150 mM KCl, 2 mM DTT, 600 ug/mL BSA, 200 uM EDTA, 0.1 mg/mL sheared salmon sperm DNA, 1 ng labeled DNA, 37 C, 30 min, recombinant protein, residues 1-150, label: 5'-32P, probe letters rebuilt from the primers and the genome. Background: A gel shift assay detects complexes by their altered migration in electrophoresis.

Data set [2] shares this target. Kind of data set: EMSA. Particulars: apo (iron-free, EDTA), very little non-specific binding only at highest Fur (1.07 ug/mL); apo-BB, 2x stock: 24% glycerol, 40 mM Tris pH 8.0, 150 mM KCl, 2 mM DTT, 600 ug/mL BSA, 200 uM EDTA, 0.1 mg/mL sheared salmon sperm DNA; 1 ng labeled DNA; 37 C, 30 min; recombinant protein; residues 1-150; label: 5'-32P; probe letters rebuilt from the primers and the genome.

As for “GCAACTCTCGTAATGTAAACATGTTTTCTCCTTGTGATTAGATAGCCTTATTGTAATCATTTTTTAATACTTTTTGGTAAATCTTTTCTTAAAAATTAAATCGTTATGCAAATTTTGTAG (double strand) [sodB promoter -5 bp swap (C-5A)]”, the binding result in data set [1] (competes better than WT G27, apo-BB) is on record as “binds”.

Turning to “GCAACTCTCGTAATGTAAACATGTTTTCTCCTTGTGATTAGATAGCCGTATTGTAATCATTTTTTAATACTTTTTGGTAAATCTTTTCTTAAAAATTAAATCGTTATGCAAATTTTGTAG (double strand) [sodB promoter WT G27]”, in data set [1] (affinity order 26695>=-5 bp swap>G27, apo-BB), the binding result is given as “binds more weakly”.

Take “CCAAAGAGGGTAAAGAGAGCGGGATGAAAAGGTTTTTAAATCCATTTTCCCTATCCAAGATGAGCATAACCGCATCACTTTAGAGTATGCGGGTTGTGAATTTGGCAAGTCTAAATACACTGTTAGAGAAGCGATGGAGAGG (double strand) [rpoB promoter (negative control)]”: the binding result in data set [2] is given as “no binding”.

With “GCAACTCTCGTAATGTAAACATGTTTTCTCCTTGTGATCAGATAGCCTTATTGTAATCATTTTTTAATACTTTTTGGTAAATCTTTTCTTAAAAATGGATCTTTATGCAAATTTTGTGG (double strand) [sodB promoter WT 26695]”, the binding result in data set [1] (highest affinity (26695>=-5 bp swap>G27), apo-BB) is “binds”.
